# Target: SARS-CoV-2 Munich strain spike glycoprotein on authentic virus (SARS-CoV-2)
# Test: cell-based or functional assay
binder,measurement,value
Nb20 (VHH) VHH: QVQLVESGGGLVQAGGSLRLSCAVSGAGAHRVGWFRRAPGKEREFVAAIGASGGMTNYLDSVKGRFTISRDNAKNTIYLQMNSLKPQDTAVYYCAARDIETAEYIYWGQGTQVTVSS,Authentic virus PRNT IC50,0.048 nM
